In publication PMC6211226, “Intracellular Signaling by the comRS System in Streptococcus mutans Genetic Competence” (mSphere, 2018):

Molecular target: T1, ComR (Streptococcus mutans UA159) (UniProt Q8DWI6)
T1 sequence (looked up): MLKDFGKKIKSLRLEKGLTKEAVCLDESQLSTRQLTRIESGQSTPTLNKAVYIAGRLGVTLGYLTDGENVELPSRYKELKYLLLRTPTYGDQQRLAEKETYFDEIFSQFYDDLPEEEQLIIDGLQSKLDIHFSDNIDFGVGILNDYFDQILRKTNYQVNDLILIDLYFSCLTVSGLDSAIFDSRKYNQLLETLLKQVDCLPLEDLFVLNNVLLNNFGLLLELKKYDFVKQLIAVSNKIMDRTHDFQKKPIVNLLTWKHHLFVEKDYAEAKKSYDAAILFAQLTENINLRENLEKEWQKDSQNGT
Assay: fluorescence polarization
Conditions: no peptide; Previously described reaction buffer (ref 53; composition not given) + 1 mM EDTA, 0.05 mg/ml salmon DNA, 1 nM probe, 37 C, 20 min; ComR dialyzed into PBS pH 7.4; recombinant protein; residues 1-304; label: 5' Bodipy FL-X; folded or branched DNA

ATGGGACATTTATGTCCTGTCCCCCACAGGACATAAATGTCCCAT [PcomX stem-loop probe]
binding result: binds more weakly

For at least one entry, the source does not settle the construct or the ends of the probe. The comparison behind a weaker result is the experiment's own reference, which may not be listed here. Tags and fusion partners may be left off the protein sequences shown.
